Results of unrelated studies side by side (data: NIAID ChemDB).

Shared fields: growth or infection tests; species: Candida albicans; endpoint: MIC

Blank or dashed fields: not listed here. Conditions beyond the fields shown may differ between rows.

{"SMILES": "O=C1CSC(=O)N1", "strain": "MTCC 227", "method": "broth dilution / visual reading", "value": "250 µg/mL"}
{"SMILES": "Nc1cccc(S(=O)(=O)O)c1", "method": "agar diffusion", "value": "300 µg/mL"}
{"SMILES": "CN(Cc1ccc(S(N)(=O)=O)cc1)CC(O)(Cn1cncn1)c1ccc(F)cc1F", "strain": "98 001", "method": "resazurin", "value": "0.013 µg/mL"}
{"SMILES": "CC(C)=CCCC(C)C1CCC2C3CCC4C(CCC(OC(=O)/C=C/c5ccccc5)C4(C)C)C3CCC12C", "strain": "ATCC 9002", "method": "XTT / absorbance", "value": "512 µg/mL"}
{"SMILES": "CC(=O)O[C@H]1CC[C@@]2(C)C(=CCC3C4CCC(C(=O)/C=C/c5ccc(F)cc5F)[C@@]4(C)CCC32)C1", "strain": "MTCC 183", "method": "turbidity", "value": "350 µg/mL"}
{"SMILES": "Cc1nnsc1C(=O)NNC(=S)Nc1ccccc1Br", "strain": "ATCC 10231", "method": "agar", "value": "400 µg/mL"}
{"SMILES": "C[C@@H](c1ncncc1F)[C@](O)(Cn1cncn1)c1ccc(F)cc1F", "strain": "15 isolates", "method": "broth dilution", "conditions": "pH 7", "value": "0.03 µg/mL"}
{"SMILES": "CC(C)c1ccc(NS(=O)(=O)c2ccc(CN(C)CC(O)(Cn3cncn3)c3ccc(F)cc3F)cc2)cc1", "strain": "DSY735", "method": "resazurin", "value": "1.05 µg/mL"}
{"SMILES": "O=S(=O)(O)c1ccc2cc(O)ccc2c1", "method": "agar diffusion", "value": "300 µg/mL"}
{"SMILES": "CC(C)NS(=O)(=O)c1ccc(CN(C)CC(O)(Cn2cncn2)c2ccc(F)cc2F)cc1", "strain": "98 001", "method": "resazurin", "value": "0.002 µg/mL"}
{"SMILES": "CC1(C)C(=O)CC[C@@]2(C)C1CC[C@]1(C)[C@@H]2[C@H](O)C=C2[C@@H]3C[C@@](C)(C(=O)O)CC[C@]3(C)CC[C@]21C", "method": "absorbance", "value": "63 µg/mL"}
{"SMILES": "Nc1ccc2c(S(=O)(=O)O)cccc2c1S(=O)(=O)O", "method": "agar diffusion", "value": "100 µg/mL"}
{"SMILES": "COc1ccc(Br)cc1/C=N/NC(=O)Cc1ccc([N+](=O)[O-])cc1", "method": "MTT", "value": ">150 µM"}
{"SMILES": "Nc1ccc2ccccc2c1S(=O)(=O)O", "method": "agar diffusion", "value": "200 µg/mL"}
{"SMILES": "O=C(NNC(=S)Nc1ccc(F)cc1F)c1cc2ccccc2[nH]1", "strain": "ATCC 10231", "method": "agar", "value": ">400 µg/mL"}
{"SMILES": "N#CSc1ccc2nc(NC(=O)CN3C(=O)S/C(=C/c4ccc(O)cc4)C3=O)sc2c1", "strain": "MTCC 227", "method": "broth dilution / visual reading", "value": "1000 µg/mL"}
{"SMILES": "Nc1cc(S(=O)(=O)O)cc2c(S(=O)(=O)O)ccc(S(=O)(=O)O)c12", "method": "agar diffusion", "value": "100 µg/mL"}
{"SMILES": "COc1ccc(Br)cc1/C=N/NC(=O)Cc1cccc(C)c1O", "method": "MTT", "value": ">150 µM"}
{"SMILES": "N=C(N)c1ccc(OCCCCCCOc2ccc(C(=N)N)cc2)cc1", "strain": "Ca3", "method": "agar diffusion / agar", "value": "20 µg/mL"}
{"SMILES": "C[n+]1c2cccc(Cl)c2cc2sc3ccccc3c21", "strain": "ATCC 90028", "method": "resazurin", "value": ">20 µg/mL"}
{"SMILES": "O=C1NC(=O)/C(=C\\c2ccccc2)S1", "strain": "MTCC 227", "method": "broth dilution / visual reading", "value": "500 µg/mL"}
{"SMILES": "C[n+]1c2cccc(O)c2cc2sc3ccccc3c21", "strain": "ATCC 90028", "method": "resazurin", "value": ">20 µg/mL"}
{"SMILES": "Nc1c(S(=O)(=O)O)cc(S(=O)(=O)O)c2cccc(O)c12", "method": "agar diffusion", "value": "300 µg/mL"}
{"SMILES": "Cc1nnsc1C(=O)NNC(=S)Nc1ccc([N+](=O)[O-])cc1", "strain": "ATCC 10231", "method": "agar", "value": "100 µg/mL"}
{"SMILES": "CCCNS(=O)(=O)c1ccc(CN(C)CC(O)(Cn2cncn2)c2ccc(F)cc2F)cc1", "strain": "98 001", "method": "resazurin", "value": "<0.001 µg/mL"}
{"SMILES": "Clc1ccc(COC(Cn2ccnc2)c2ccc(Cl)cc2Cl)c(Cl)c1", "strain": "10 isolates", "method": "broth dilution", "conditions": "pH 6", "value": "0.5 µg/mL"}
{"SMILES": "CN(Cc1ccc(S(=O)(=O)Nc2ccccc2)cc1)CC(O)(Cn1cncn1)c1ccc(F)cc1F", "strain": "DSY735", "method": "resazurin", "value": "1.03 µg/mL"}
{"SMILES": "O=C1NC(=O)/C(=C\\c2ccccc2Cl)S1", "strain": "MTCC 227", "method": "broth dilution / visual reading", "value": "500 µg/mL"}
{"SMILES": "CC(=O)N1CCN(c2ccc(OC[C@H]3CO[C@](Cn4ccnc4)(c4ccc(Cl)cc4Cl)O3)cc2)CC1", "strain": "10 isolates", "method": "broth dilution", "conditions": "pH 4", "value": "0.5 µg/mL"}
{"SMILES": "COc1ccc(/C=C2/SC(=O)N(CC(=O)Nc3nc4ccc(SC#N)cc4s3)C2=O)cc1", "strain": "MTCC 227", "method": "broth dilution / visual reading", "value": "100 µg/mL"}
{"SMILES": "OC(Cn1cncn1)(Cn1cncn1)c1ccc(F)cc1F", "strain": "MTCC 183", "method": "turbidity", "value": "150 µg/mL"}
{"SMILES": "COc1ccc(Br)cc1/C=N/NC(=O)Cc1cccc(Br)c1", "method": "MTT", "value": ">150 µM"}
{"SMILES": "Nc1cc(S(=O)(=O)O)cc2cc(S(=O)(=O)O)cc(O)c12", "method": "agar diffusion", "value": "50 µg/mL"}
{"SMILES": "CC(C)CC1NC(=O)CC(CCCCCCCCC(C)O)OC(=O)C(CC(C)C)NC(=O)C(CC(C)C)NC(=O)C(CC(C)C)NC(=O)C(C(C)C)NC(=O)C(CC(=O)O)NC(=O)C(CC(C)C)NC1=O", "strain": "ATCC 10231", "method": "absorbance", "value": "1 µg/mL"}
{"SMILES": "CC(=O)O[C@H]1CC[C@@]2(C)C(=CCC3C4CCC(C(=O)/C=C/c5ccc(Cl)cc5)[C@@]4(C)CCC32)C1", "strain": "MTCC 183", "method": "turbidity", "value": "500 µg/mL"}
{"SMILES": "N#CSc1ccc2nc(NC(=O)CN3C(=O)S/C(=C/c4cccc(-c5ccco5)c4)C3=O)sc2c1", "strain": "MTCC 227", "method": "broth dilution / visual reading", "value": "500 µg/mL"}
{"SMILES": "C[C@H]1[C@H](O)[C@@H](C)/C=C/C=C/C=C/C=C/C=C/C=C/C=C/[C@H](O[C@@H]2O[C@H](C)[C@@H](O)[C@H](N)[C@@H]2O)C[C@@H]2O[C@](O)(C[C@@H](O)C[C@@H](O)CC[C@H](O)[C@@H](O)C[C@@H](O)CC(=O)O[C@H]1C)C[C@H](O)[C@H]2C(=O)O", "method": "absorbance", "value": "0.16 µg/mL"}
{"SMILES": "COc1cc(/C=C2/SC(=O)N(CC(=O)Nc3nc4ccc(SC#N)cc4s3)C2=O)cc(OC)c1OC", "strain": "MTCC 227", "method": "broth dilution / visual reading", "value": "1000 µg/mL"}
{"SMILES": "CNc1ccc2cc(S(=O)(=O)O)cc(O)c2c1", "method": "agar diffusion", "value": "300 µg/mL"}
{"SMILES": "Cc1nnsc1C(=O)NNC(=S)Nc1ccc(Cl)cc1Cl", "strain": "ATCC 90028", "method": "agar", "value": "200 µg/mL"}
{"SMILES": "CCC(C)CC(C)CCCCCCCCC(=O)N[C@H]1C[C@@H](O)[C@H](NCCN)NC(=O)[C@@H]2[C@@H](O)CCN2C(=O)[C@H]([C@H](O)CCN)NC(=O)[C@H]([C@H](O)[C@@H](O)c2ccc(O)cc2)NC(=O)[C@@H]2C[C@@H](O)CN2C(=O)[C@H]([C@@H](C)O)NC1=O", "strain": "15 isolates", "method": "broth dilution", "conditions": "pH 5", "value": "0.06 µg/mL"}
{"SMILES": "COc1cc(/C=C2/SC(=O)N(CC(=O)Nc3nc4ccc(SC#N)cc4s3)C2=O)ccc1O", "strain": "MTCC 227", "method": "broth dilution / visual reading", "value": "1000 µg/mL"}

6 of the rows above, restated:

SMILES | strain | method | conditions | value
CC(=O)O[C@H]1CC[C@@]2(C)C(=CCC3C4CCC(C(=O)/C=C/c5ccc(Cl)cc5)[C@@]4(C)CCC32)C1 | MTCC 183 | turbidity | - | 500 µg/mL
N#CSc1ccc2nc(NC(=O)CN3C(=O)S/C(=C/c4ccc(O)cc4)C3=O)sc2c1 | MTCC 227 | broth dilution / visual reading | - | 1000 µg/mL
N=C(N)c1ccc(OCCCCCCOc2ccc(C(=N)N)cc2)cc1 | Ca3 | agar diffusion / agar | - | 20 µg/mL
O=C(NNC(=S)Nc1ccc(F)cc1F)c1cc2ccccc2[nH]1 | ATCC 10231 | agar | - | >400 µg/mL
CCCNS(=O)(=O)c1ccc(CN(C)CC(O)(Cn2cncn2)c2ccc(F)cc2F)cc1 | 98 001 | resazurin | - | <0.001 µg/mL
COc1ccc(Br)cc1/C=N/NC(=O)Cc1ccc([N+](=O)[O-])cc1 | - | MTT | - | >150 µM